Anti-infective test results gathered from many reports (values: NIAID ChemDB through PubChem).

All rows: growth or infection tests; species: Hepatitis C virus; cell line: Huh7; endpoint: EC50

ECn: concentration that inhibits the pathogen or its effect by n%.

SMILES	strain or isolate	changes	method	value
CNC(=O)c1c(-c2ccc(F)cc2)oc2cc(N3CCC(F)CC3)c(OC(C)C)cc12	-	-	replicon	<1 µM
CCC(C)(C)c1ccc(S(=O)(=O)Oc2ccccc2/C=N/NC(=O)Cc2cccc(OC)c2)cc1	-	-	replicon	<5 µM
CNC(=O)c1c(-c2ccc(F)cc2)oc2cc(-c3c(C4CC4)noc3COC)c(OC)cc12	-	-	replicon	<1 µM
Cc1cnc(CN2C(=O)C(c3ccc(NC(=O)[C@@H](C)NC(=O)OCc4ccccc4)cc3)SC2=Nc2ccc(N3CCOCC3)cc2)cn1	-	-	replicon	<0.1 µM
O=C(Cc1cccc2occc12)N/N=C/c1ccccc1OS(=O)(=O)c1ccc(C(F)(F)F)cc1	-	-	replicon	5–50 µM
CNC(=O)c1c(-c2ccc(F)cc2)oc2cc(NCC3CCCO3)c(OC(C)C)cc12	-	-	replicon	<10 µM
O=C(N/N=C/c1ccccc1OS(=O)(=O)c1ccc(C(F)(F)F)cc1)OCc1ccccc1	-	-	replicon	<5 µM
CC(C)(C)OC(=O)N1C/C=C\Cn2c(c(C3CCCCC3)c3ccc(C(=O)O)cc32)-c2ccccc21	-	-	replicon	>10 µM
O=C(Nc1ccc(C2SC(=Nc3cccc(F)c3)N(Cc3ccco3)C2=O)cc1)[C@H]1CCCN1C(=O)Cc1ccc(Cl)cc1	-	-	replicon	0.1–1 µM
CNC(=O)c1c(-c2ccc(F)cc2)oc2cc(N(C)S(C)(=O)=O)c(OCC(=O)c3ccc(OC)cc3)cc12	-	-	replicon	<1 µM
CN(C)S(=O)(=O)NC(=O)c1ccc2c(C3CCCCC3)c3n(c2c1)CCCc1ccccc1-3	-	-	replicon	0.01–1 µM
CCN(c1cc2oc(-c3ccc(F)cc3)c(C(=O)NC)c2cc1O)S(C)(=O)=O	-	-	replicon	<10 µM
COC(=O)c1ccc2c(C3CCCCC3)c3n(c2c1)CC(C(=O)N1CCCOCC1)=Cc1ccccc1-3	-	-	replicon	1–10 µM
O=C(Nc1ccc(C2SC(=Nc3ccc(N4CCOCC4)cc3)N(Cc3ccco3)C2=O)cc1)[C@H]1CCCN1C(=O)OCc1ccccc1	-	-	replicon	<0.1 µM
COC(=O)c1ccc2c(C3CCCCC3)c3n(c2c1)CC(C(=O)O)=Cc1cc(OC)ccc1-3	-	-	replicon	1–10 µM
COc1c(-c2ccc3cc(NS(C)(=O)=O)ccc3c2)cc(-n2ccc(=O)[nH]c2=O)cc1C(C)(C)C	genotype 1b Con1	S556G	luciferase	0.0065 µM
Cc1ccc(/C=N/NC(=O)Cc2cccc(Cl)c2)c(OS(=O)(=O)c2ccc(C(F)(F)F)cc2)c1	-	-	replicon	>50 µM
C[C@@H](NC(=O)OCc1ccccc1)C(=O)Nc1ccc(C2SC(=Nc3ccc(C(F)(F)F)cc3)N(Cc3ccco3)C2=O)cc1	-	-	replicon	1–5 µM
O=C(O)c1ccc2c(C3CCCCC3)c3n(c2c1)CC(C(=O)N1CCOCC1)=Cc1ccccc1-3	-	-	replicon	0.01–1 µM
CNC(=O)c1c(-c2ccc(F)cc2)oc2cc(-c3c(C)noc3C)c(OC)cc12	-	-	replicon	<1 µM
N#CC1C(=O)Cn2c(c(C3CCCCC3)c3ccc(C(=O)O)cc32)-c2ccccc21	-	-	replicon	>10 µM
CNC(=O)c1c(-c2ccc(F)cc2)oc2cc(S(=O)(=O)N3CCOCC3)c(OC(C)C)cc12	-	-	replicon	<10 µM
O=C(O)/C=C/c1ccc(NCC2(NC(=O)c3ccc4c(C5CCCCC5)c5n(c4c3)CC(C(=O)N3CCN(c4ccncc4)CC3)Cc3ccccc3-5)CCCC2)cc1	-	-	replicon	0.01–1 µM
CNC(=O)c1c(-c2ccc(F)cc2)oc2cc(N3CCOCC3)c(OCc3nsc(Cl)n3)cc12	-	-	replicon	<1 µM
COc1cccc(CC(=O)N/N=C/c2cccc(C)c2OS(=O)(=O)c2ccc(C(F)(F)F)cc2)c1	-	-	replicon	<5 µM

For reference, 3 entries again:

SMILES | strain or isolate | changes | method | value
CNC(=O)c1c(-c2ccc(F)cc2)oc2cc(NCC3CCCO3)c(OC(C)C)cc12 | - | - | replicon | <10 µM
CNC(=O)c1c(-c2ccc(F)cc2)oc2cc(S(=O)(=O)N3CCOCC3)c(OC(C)C)cc12 | - | - | replicon | <10 µM
CCN(c1cc2oc(-c3ccc(F)cc3)c(C(=O)NC)c2cc1O)S(C)(=O)=O | - | - | replicon | <10 µM

Neighbouring rows are from separate reports. Two numbers with a dash give a range or band. An empty or dashed field is not shown.